Source: article PMC4627656, “Combining Metabolite-Based Pharmacophores with Bayesian Machine Learning Models for Mycobacterium tuberculosis Drug Discovery” (PLoS ONE, 2015)
Where “and” joins values, the source holds several entries; their conditions need not be identical. Equal entries are not always repeated.

System: Vero cells
Settings: Vero CC50 / Mtb MIC

Structure (SMILES)	SI = CC50/MIC
Cc1c(C(=O)C2CC2)[n+]([O-])c2cc(Cl)c(Cl)cc2[n+]1[O-] [SRI58]	> 32 and > 33.33
CC(=O)c1c(C)[n+]([O-])c2ccc(Cl)cc2[n+]1[O-] [SRI4]	> 8
CC(C)=CCCC(=O)c1c(C)[n+]([O-])c2cc(Cl)c(Cl)cc2[n+]1[O-] [SRI57]	> 32 and > 33.33
Cc1c(C(=O)c2cccnc2)[n+]([O-])c2cc(Cl)c(Cl)cc2[n+]1[O-] [SRI55]	> 16
